# Source: US20240390349A1, “DOSING REGIMEN OF CAPSID INHIBITOR” (priority 2023, published 2024)
# System: HIV-1 capsid LEN resistance mutations
# Settings: HTE participants (Example 4)
# From the text: In HTE participants (Example 4), the resistance analysis population (RAP) during the oral bridging period included 9 participants (16%, 9/57) who met the criteria for resistance analysis, including 4 participants also present in the previous analysis. […];
smiles,measurement,value
"CC(C)(C#Cc1ccc(-c2ccc(Cl)c3c(NS(C)(=O)=O)nn(CC(F)(F)F)c23)c([C@H](Cc2cc(F)cc(F)c2)NC(=O)Cn2nc(C(F)(F)F)c3c2C(F)(F)[C@@H]2C[C@H]32)n1)S(C)(=O)=O [LEN, N—((S)-1-(3-(4-chloro-3-(methylsulfonamido)-1-(2,2,2-trifluoroethyl)-1H-indazol-7-yl)-6-(3-methyl-3-(methylsulfonyl)but-1-yn-1-yl)pyridin-2-yl)-2-(3,5-difluorophenyl)ethyl)-2-((3bS,4aR)-5,5-difluoro-3-(trifluoromethyl)-3b,4,4a,5-tetrahydro-1H-cyclopropa [3,4]cyclopenta [1,2-c]pyrazol-1-yl) acetamide]",Participants in the RAP who developed resistance to LEN,Six of the 9
